Anti-infective test results gathered from many reports (values: NIAID ChemDB through PubChem).

Shared fields: cytotoxicity tests; cells: THP-1; measure: CC50

CCn: concentration that lowers growth or viability of the cells by n%. Neighbouring rows are from separate reports. An empty or dashed field is not shown.

SMILES,method,result
CC1(C)CC2=C(O1)C(=O)c1cc3ncsc3cc1C2=O,-,0.007 µM
CCCCSc1n[nH]c(-c2ccco2)n1,-,>100 µg/mL
Cc1ccc(Cl)cc1-c1nc(=S)[nH][nH]1,MTT,90.61 µg/mL
C=CCSc1n[nH]c(-c2ccco2)n1,-,>100 µg/mL
COc1ccc(OC)c2c1ccn2CCNC(=O)OC(C)(C)C,-,0.11 µM
O=C(c1ccc2ccccc2c1)N1CCCC1,WST,>100 µM
COC(=O)c1cc2c(s1)C(=O)C=CC2=O,-,0.052 µM
O=C(COc1ncnc2sccc12)N/N=C/c1ccccc1Br,MTT / absorbance,2390 µM
O=C1c2cc3scnc3cc2C2=NCCn3ccc1c32,-,0.615 µM
COc1cc(C2C/C(=N/c3nc4ccc(F)c(Cl)c4s3)NN2c2nc3ccccc3s2)ccc1O,MTT,423.5 µg/mL
N#Cc1cccc(S(=O)(=O)N(Cc2c(Cl)cccc2Cl)c2cccc(C(=O)NC3CCC3)c2)c1,absorbance,>33 µM
O=[N+]([O-])c1ccc(-c2nc(=S)[nH][nH]2)cc1C(F)(F)F,MTT,57.4 µg/mL
COc1cc(/C=N/NC(=O)COc2ncnc3sccc23)cc(OC)c1OC,MTT / absorbance,2020 µM
O=[N+]([O-])c1ccc(-c2nc(=S)[nH][nH]2)cc1,MTT,38.83 µg/mL
COc1ccc(OC)c2[nH]c(C(=O)O)cc12,-,0.011 µM
COc1ccnc(NC(=O)NS(=O)(=O)c2cc(NC(=O)CCl)ccc2Cl)n1,MTT,179.7 µg/mL
C#CCSc1n[nH]c(-c2ccc(C(F)(F)F)cc2)n1,-,>100 µg/mL
CCC(C)Sc1n[nH]c(-c2ccc(C)cc2)n1,MTT,>100 µg/mL
CC1(C)CC2=C(O1)C(=O)C=C(Br)C2=O,-,0.053 µM
C=CCSc1n[nH]c(-c2ccc([N+](=O)[O-])c(C)c2)n1,-,>100 µg/mL
CCCCCCCCOC(=O)c1cc([N+](=O)[O-])cc([N+](=O)[O-])c1,-,>512 µg/mL
CC1(C)CC2=C(O1)C(=O)C(Br)=CC2=O,-,0.085 µM
O=C(Nc1cccc(C(F)(F)F)c1)c1c(O)ccc2ccccc12,-,>20 µM
O=[N+]([O-])c1cc2nc(/N=C3/CC(c4ccc(O)cc4)N(c4nc5ccc(F)c(Cl)c5s4)N3)sc2c(Cl)c1F,MTT,192 µg/mL
O=C(COc1ncnc2sccc12)N/N=C/c1ccc(Cl)cc1,MTT / absorbance,2260 µM
Cc1c(Cl)cccc1-c1nc(=S)[nH][nH]1,MTT,76.44 µg/mL
Oc1ccc(C2C/C(=N/c3nc4ccc(F)c(Cl)c4s3)NN2c2nc3ccccc3s2)cc1,MTT,447 µg/mL

Repeating the final 2 entries:

SMILES,method,result
Cc1c(Cl)cccc1-c1nc(=S)[nH][nH]1,MTT,76.44 µg/mL
Oc1ccc(C2C/C(=N/c3nc4ccc(F)c(Cl)c4s3)NN2c2nc3ccccc3s2)cc1,MTT,447 µg/mL